Pooled drug test results. Numbers come from NIAID ChemDB, via PubChem.

Common to all: growth or infection tests; organism: Herpes simplex virus 2; cell line: HEL; endpoint: EC50

ECn is the concentration giving n% inhibition of infection, replication or growth.

SMILES,strain,read by,value
C=Cc1cn([C@H]2C[C@H](O)[C@@H](CO)O2)c(=O)[nH]c1=O,-,plaque count,2.8 µM
Nc1nc2c(ncn2COC(CO)CO)c(=O)[nH]1,HS-47,cytopathic effect,0.0015 µg/mL
C[C@H](N)C(=O)OCP(=O)(OC[C@H]1O[C@@H](n2cnc3c(Cl)nccc32)C[C@@H]1O)Oc1ccccc1,G,-,>100 µM
Nc1nc2c(ncn2CCC(CO)CO)c(=O)[nH]1,PCV-resistant/B,cytopathic effect,6.6 µg/mL
C[C@H](NP(=O)(N[C@@H](C)C(=O)OC(C)(C)C)OC[C@H]1O[C@@H](n2cnc(C(N)=O)c2N)[C@H](O)[C@@H]1O)C(=O)OC(C)(C)C,G,cytopathic effect,>100 µM
O=c1[nH]c(=O)n([C@@H]2O[C@H](CO)[C@@H](O)[C@@H]2O)cc1/C=C/I,-,plaque count,96 µM
CC(C)(C)C(=O)OCOC(=O)CN(CC(=O)OCOC(=O)C(C)(C)C)P(=O)(OC[C@H]1O[C@@H](n2cc(/C=C/Br)c(=O)[nH]c2=O)C[C@@H]1O)Oc1ccccc1,G,-,>4 µM
Cc1cn([C@@H]2O[C@H](CO)[C@@H](O)[C@@H]2O)c(=O)[nH]c1=O,HS-47,cytopathic effect,0.25 µg/mL
Nc1nc2c(ncn2COCCO)c(=O)[nH]1,G,-,0.4 µM
NCC(O)c1ccc(O)c(O)c1,G,plaque count,23 µg/mL
Nc1nc(N)c2ncn(CCOCP(=O)(O)O)c2n1,HS-44,cytopathic effect,7.3 µg/mL
Nc1ncnc2c1ccn2[C@H]1C[C@H](O)[C@@H](CO)O1,G,-,69 µM
Nc1ncnc2c1ncn2C[C@@H](CO)OCP(=O)(O)O,HS-44,cytopathic effect,0.04 µg/mL
Cc1cn([C@@H]2O[C@H](CO)[C@@H](O)[C@@H]2O)c(=O)[nH]c1=O,-,plaque count,1.74 µM
C[C@H](N)C(=O)OCP(=O)(OC[C@H]1O[C@@H](n2cnc3c(N)ccnc32)C[C@@H]1O)Oc1ccccc1,G,-,>100 µM
CC(C)NCC(O)c1ccc(O)c(O)c1,G,plaque count,57 µg/mL
C[C@H](N)C(=O)OCP(=O)(OC[C@H]1O[C@@H](n2ccc3c(N)ncnc32)C[C@@H]1O)Oc1ccccc1,G,-,>100 µM
CCOC(=O)c1cc(O)c(O)c(O)c1,G,plaque count,4 µg/mL
Nc1nc2c(ncn2CCC(CO)CO)c(=O)[nH]1,HS-47,cytopathic effect,0.35 µg/mL

The last 2 rows once more:

SMILES,strain,read by,value
CCOC(=O)c1cc(O)c(O)c(O)c1,G,plaque count,4 µg/mL
Nc1nc2c(ncn2CCC(CO)CO)c(=O)[nH]1,HS-47,cytopathic effect,0.35 µg/mL

Neighbouring rows are from separate reports. Blank or dashed fields: not listed here.